Results taken from patent US20250326715A1, “NOVEL MAIN PROTEASE INHIBITORS, AND COMPOSITIONS AND METHODS THEREOF” (University of Massachusetts, priority 2023, published 2025).

Key:
SARS-CoV-2 M^Pro [1] = target: T1, SARS-CoV-2 M^Pro (Severe acute respiratory syndrome coronavirus 2, UniProt P0DTD1); assay: Determination of KI values for SARS-CoV-2 M^Pro (initial velocity, competitive inhibition); type: biochemical; conditions: read-out: KI, M^Pro; estimated from the initial portion of the progress curves
SARS-CoV-2 PL^Pro = SARS-CoV-2 PL^Pro (Severe acute respiratory syndrome coronavirus 2, UniProt P0DTD1); assay: Determination of IC50 values for SARS-CoV-2 PL^Pro (Z-RLRGG-AMC substrate); conditions: read-out: PL^Pro IC50; 30 nM PL^Pro, 20 min preincubation
SARS-CoV-2 [2] = assay: Cellular antiviral assay, SARS-CoV-2 infected A549-hACE2 cells (qPCR of viral mRNA); conditions: 2 μM, 24 h
SARS-CoV-2 [3] = assay: Cellular antiviral assay, SARS-CoV-2 infected Huh7.5 cells (qPCR of viral mRNA); conditions: 2 μM, 24 h
SARS-CoV-2 M^Pro [4] = target: T1, SARS-CoV-2 M^Pro; assay: Determination of IC50 values for SARS-CoV-2 M^Pro (fluorogenic peptide substrate, end-point); conditions: read-out: biochemical IC50 for the inhibition of M^Pro

| SMILES | Ki (SARS-CoV-2 M^Pro [1]) | IC50 (SARS-CoV-2 PL^Pro) | antiviral activity, in words (SARS-CoV-2 [2]) | antiviral activity, in words (SARS-CoV-2 [3]) | IC50 (SARS-CoV-2 M^Pro [4]) |
| --- | --- | --- | --- | --- | --- |
| C#CCOCCC(=O)N[C@H](Cc1ccccc1)C(=O)N[C@@H](Cc1ccccc1)C(=O)N[C@@H](CCCNC(N)=O)C(=O)CCl | 0.2 µM | 40 µM | poor antiviral activity | poor antiviral activity | – |
| C#CCOCCC(=O)N[C@H](Cc1ccccc1)C(=O)N[C@@H](Cc1ccccc1)C(=O)N[C@@H](CCCNC(=N)N)C(=O)CCl | 0.3 µM | – | poor antiviral activity | poor antiviral activity | 0.02 µM |
